The test system of assay [1] is SARS-CoV-2-specific CD4+ T cells (OX40+CD137+) in PBMC. Type of assay: cell-based, human. On Magnitude by # of responding donors: unit not given here. On Sum of response: unit not given here.
The test system of assay [2] is SARS-CoV-2-specific CD8+ T cells (CD69+CD137+) in PBMC. Format: cell-based, human. On Magnitude of response: unit not given here. On Sum of response: unit not given here.

This is an account of results in US20230293630A1, “Coronavirus T Cell Epitopes and Uses Thereof” (priority 2020, published 2023).

Values joined by “and” are separate entries in the source; they are usually repeats but may differ in a detail not shown here. Identical values can stand only once.

As for FLFLTWICLLQFAYA, in assay [1], the “Frequency of response (%)” value is on record as 7%, the “Magnitude by # of responding donors” value was found to be 255 and the Sum of response amounted to 255.

KRISNCVADYSVLYN: in assay [1], the “Frequency of response (%)” value is 17%, the “Magnitude by # of responding donors” value is recorded as 164 and the Sum of response is listed as 327.

KHTPINLVRDLPQGF: in assay [1], the “Frequency of response (%)” value was 18%, the “Magnitude by # of responding donors” value was 821 and the Sum of response came out at 1641.

As to IPIQASLPF, in assay [2], the “Frequency of positive response” value is 50 and 67; the Magnitude of response was 491 and 809.

For TPINLVRDL, in assay [2], the “Frequency of positive response” value was found to be 20, the Magnitude of response amounted to 406 and the Sum of response came to 406.

Take ALLAGTITSGWTFGA: in assay [1], the “Frequency of response (%)” value came to 9%, the “Magnitude by # of responding donors” value came out at 116 and the Sum of response amounted to 116.

In the case of HIDAYKTFPPTEPKK, in assay [1], the “Frequency of response (%)” value came to 7%, the “Magnitude by # of responding donors” value was determined as 223 and the Sum of response is reported as 223.

Turning to WICLLQFAYANRNRF, in assay [1], the “Frequency of response (%)” value stood at 7%, the “Magnitude by # of responding donors” value is 234 and the Sum of response is 234.

As for KRTATKAYNVTQAFG, in assay [1], the “Frequency of response (%)” value is on record as 31%, the “Magnitude by # of responding donors” value amounted to 188 and the Sum of response was 752.

On to SVTTEILPVSMTKTS, for which, in assay [1], the “Frequency of response (%)” value worked out at 8%, the “Magnitude by # of responding donors” value amounted to 341 and the Sum of response was determined as 341.

As to TLEILDITPCSFGGV, in assay [1], the “Frequency of response (%)” value came to 8%, the “Magnitude by # of responding donors” value amounted to 227 and the Sum of response is reported as 227.

With KAYNVTQAFGRRGPE, in assay [1], the “Frequency of response (%)” value was 15%, the “Magnitude by # of responding donors” value was found to be 265 and the Sum of response was 530.

Regarding KEIDRLNEV, the “Frequency of positive response” value in assay [2] is reported as 20.

Regarding YAWNRKRISNCVADY, in assay [1], the “Frequency of response (%)” value was 8%, the “Magnitude by # of responding donors” value is 582 and the Sum of response came to 582.

With TNFTISVTTEILPVS, in assay [1], the “Frequency of response (%)” value was 17%, the “Magnitude by # of responding donors” value is reported as 332 and the Sum of response is listed as 663.

Regarding ATSRTLSYYKLGASQ, in assay [1], the “Frequency of response (%)” value is recorded as 15%, the “Magnitude by # of responding donors” value was found to be 693 and the Sum of response was found to be 1386.

For the sequence FTISVTTEI, in assay [2], the “Frequency of positive response” value worked out at 50, the Magnitude of response was 499 and the Sum of response came to 997.
